The results in this text go back to patent US20100203559A1.

Where “and” joins values, the source holds several entries; their conditions need not be identical. Equal entries are not always repeated.

The assay deals with SNAP-25 cleavage product (lysate of Neuro-2a cells treated with 10 nM BoNT/A) (mouse (Neuro-2a cells)) (UniProt P60879).
For “C-18 α-SNAP-25 goat polyclonal antibodies (Santa Cruz Biotechnology)”, the Signal/Noise Ratio (10 nM/0 nM) was 0.8 and 0.9.
The same measure for “H-50 α-SNAP-25 rabbit polyclonal antibodies (Santa Cruz Biotechnology)”: 0.9 and 1.
The same measure for “MC-6050 α-SNAP-25 mouse monoclonal antibody (Research & Diagnostic Antibodies)”: 5.
With “MC-6053 α-SNAP-25 mouse monoclonal antibody (Research & Diagnostic Antibodies)” the figure was 7.1; with “N-19 α-SNAP-25 goat polyclonal antibodies (Santa Cruz Biotechnology)”, 0.9 and 1.1; with “SMI-81 α-SNAP-25 mouse monoclonal antibody (Sternberger Monoclonals Inc.)”, 1.1 and 1 and 0.8.
On to “SP12 α-SNAP-25 mouse polyclonal antibodies (Santa Cruz Biotechnology)”, for which the Signal/Noise Ratio (10 nM/0 nM) was found to be 1.
